Here are results for one molecule from patent publication US20200237717A1, “Treatment of Staphylococcal and Enterococcal Infections Using Substituted Nitrostyrene Compounds” (Opal Biosciences Limited, priority 2017, published 2020).

Among the test systems are Sa375-L37F; Sa375-G560S; Sa375-G30W.
Experiment in all cases: Vancomycin MIC testing of Sa375 mutant
Settings in all cases: Staphylococcus aureus, read-out: Vancomycin MIC

In brackets after ≈: the same amount, converted by molar mass.

As to `CN[C@H](CC(C)C)C(=O)N[C@H]1C(=O)N[C@@H](CC(N)=O)C(=O)N[C@H]2C(=O)N[C@H]3C(=O)N[C@H](C(=O)N[C@H](C(=O)O)c4cc(O)cc(O)c4-c4cc3ccc4O)[C@H](O)c3ccc(c(Cl)c3)Oc3cc2cc(c3O[C@@H]2O[C@H](CO)[C@@H](O)[C@H](O)[C@H]2O[C@H]2C[C@](C)(N)[C@H](O)[C@H](C)O2)Oc2ccc(cc2Cl)[C@H]1O` [Vancomycin], the minimal inhibitory concentration (MIC) in the assay on Sa375-L37F amounted to 0.5 µg/mL (≈ 0.345 µM); in the assay on Sa375-G560S, 0.5 µg/mL (≈ 0.345 µM); in the assay on Sa375-G30W, 1 µg/mL (≈ 0.69 µM).
